Results of unrelated studies side by side (data: NIAID ChemDB).

Common to all: tests in culture; organism: HIV-1; cell line: MT-2; measure: fold resistance

Fold resistance has wild type as its base. Blank or dashed fields: not listed here. Conditions beyond the fields shown may differ between rows.

{"compound": "CC(C)=CCN1Cc2cccc3[nH]c(=S)n(c23)C[C@@H]1C", "strain": "IIIB", "changes": "RT-R83K", "read by": "cytopathic effect", "value": "0.9375"}
{"compound": "Nc1cccc(CN2C(=O)N(Cc3ccc4[nH]nc(-c5ccc(F)cc5)c4c3)[C@H](Cc3ccccc3)[C@H](O)[C@@H](O)[C@H]2Cc2ccccc2)c1", "strain": "Ritonavir-resistant (PR M46I L63P A71V V82F I84V)", "changes": "PR-M46I L63P A71V V82F I84V", "value": ">1.11"}
{"compound": "C[C@H](Cn1cnc2c(N)ncnc21)OCP(=O)(O)O", "strain": "HXB2", "changes": "T66A", "read by": "recombinant virus assay / single cycle", "setting": "pseudotyped", "value": "1"}
{"compound": "Cc1ccc(S(=O)(=O)N(CC(C)C)C[C@@H](O)[C@H](Cc2ccccc2)NC(=O)O[C@H]2CO[C@H]3OCC[C@H]32)cc1", "strain": "IIIB", "changes": "D437N", "read by": "p24 / ELISA", "value": "1.3"}
{"compound": "Nc1nc2c(ncn2[C@H]2CO[C@@H](CO)O2)c(=O)[nH]1", "changes": "RT-K65R", "read by": "cytopathic effect / XTT", "value": "6"}
{"compound": "Nc1nc(NC2CC2)c2ncn([C@H]3C=C[C@@H](CO)C3)c2n1", "changes": "RT-Q151M V75I", "read by": "cytopathic effect / MTT", "value": ">8"}
{"compound": "CCN(c1nc(F)ccc1NC(C)(C)C)C1CCN(C(=O)c2cc3cc(NC(=O)N4CCN(C)CC4)ccc3[nH]2)CC1", "strain": "IIIB", "changes": "ATV-P36", "read by": "ATP", "value": "0.6"}
{"compound": "CC(C)(C)OC(=O)N[C@@H](Cc1ccccc1)[C@H](O)CNC[C@@H](O)[C@H](Cc1ccc(OCC(=O)N2CCOCC2)cc1)NC(=O)OC(C)(C)C", "strain": "RF", "changes": "PR-G48V I54V A71T V82A", "value": "12.8"}
{"compound": "Cn1c2ccccc2c2c1cc(C#N)c(=O)n2-c1ccc([N+](=O)[O-])cc1", "strain": "HXB2", "changes": "TAM1 (M41L D67N L210W T215Y)", "value": "2"}
{"compound": "O=c1[nH]cnc2c1ncn2[C@H]1CC[C@@H](CO)O1", "changes": "RT-K103N", "read by": "p24", "value": "1.3"}
{"compound": "O=C(O)P(=O)(O)O", "strain": "LAI", "changes": "RT-K65R", "read by": "p24", "value": "3"}
{"compound": "Nc1nc(NC2CC2)c2ncn([C@H]3C=C[C@@H](CO)C3)c2n1", "strain": "Site-directed mutant", "changes": "RT-K65R Y115F M184V", "read by": "cytopathic effect / XTT", "value": ">8"}
{"compound": "O=c1[nH]cnc2c1ncn2[C@H]1CC[C@@H](CO)O1", "strain": "NL4-3", "changes": "RT-I178L", "read by": "p24", "value": "0.67"}
{"compound": "Nc1ccn([C@H]2CC[C@@H](CO)O2)c(=O)n1", "strain": "RT Δ.67 T69G K103N", "changes": "1 (Δ.67+T69G+K103N)", "read by": "p24", "value": "2.6"}
{"compound": "CC(C)OC(=O)OCOP(=O)(CO[C@H](C)Cn1cnc2c(N)ncnc21)OCOC(=O)OC(C)C", "strain": "G910-6 AZT-resistant (RT D67N K70R T215F K219Q)", "changes": "RT-D67N K70R T215F K219Q", "read by": "p24", "value": "0.0474"}
{"compound": "Cc1cn([C@H]2C[C@H](N=[N+]=[N-])[C@@H](CO)O2)c(=O)[nH]c1=O", "strain": "IIIB", "changes": "K112M K113E V128I M200I H219P", "read by": "p24 / ELISA", "value": "0.4"}
{"compound": "Nc1nc(=O)n([C@@H]2CO[C@H](CO)S2)cc1F", "strain": "HXB2D (M1841I)", "changes": "RT-M184I", "read by": "RT activity", "value": "4.09"}
{"compound": "Cc1c(Sc2ccccc2)n(COCCO)c(=O)[nH]c1=O", "strain": "R82150 (RT-L100I)", "changes": "RT-L100I", "read by": "cytopathic effect", "value": "3.48"}
{"compound": "Cc1cn([C@H]2C[C@H](N=[N+]=[N-])[C@@H](CO)O2)c(=O)[nH]c1=O", "strain": "LAI", "changes": "RT-L74V", "read by": "p24", "value": "1.9"}
{"compound": "Nc1ncnc2c1ncn2[C@@H]1O[C@H](CO)C[C@@H]1F", "strain": "Q151M(RT-Q151M)", "changes": "RT-Q151M", "read by": "p24", "value": "0.9"}
{"compound": "Nc1ncnc2c1ncn2CCOCP(=O)(O)O", "strain": "R82150 (RT-L100I)", "changes": "RT-L100I", "read by": "cytopathic effect", "value": "0.789"}
{"compound": "Nc1nc(N)c2ncn([C@H]3CO[C@@H](CO)O3)c2n1", "changes": "RT-K65R Q151M", "read by": "cytopathic effect / XTT", "value": "10"}
{"compound": "Cc1cn([C@H]2C[C@H](N=[N+]=[N-])[C@@H](CO)O2)c(=O)[nH]c1=O", "strain": "RT F77L/F116Y/Q151M", "changes": "RT-F77L F116Y Q151M", "read by": "p24", "value": "54.6"}
{"compound": "Cc1cn([C@H]2C=C[C@@H](CO)O2)c(=O)[nH]c1=O", "strain": "Site-directed mutant", "changes": "RT-K65R", "read by": "cytopathic effect / XTT", "value": "2.2"}
{"compound": "Nc1ccn([C@H]2CC[C@@H](CO)O2)c(=O)n1", "strain": "HX(RT-S156A)", "changes": "RT-S156A", "read by": "RT activity", "value": "1.32"}
{"compound": "Nc1ccn([C@H]2CC[C@@H](CO)O2)c(=O)n1", "strain": "RT P119S V179D L214F", "changes": "RT-P119S V179D L214F", "read by": "p24", "value": "2.1"}
{"compound": "O=c1[nH]cnc2c1ncn2[C@H]1CC[C@@H](CO)O1", "strain": "R82150 (RT-L100I)", "changes": "RT-L100I", "read by": "cytopathic effect", "value": "0.806"}
{"compound": "Nc1nc2c(ncn2[C@H]2CO[C@@H](CO)O2)c(=O)[nH]1", "strain": "LAI", "changes": "RT-D67N K70R T215Y K219Q L74V", "read by": "p24", "value": "3.7"}
{"compound": "Nc1nc2c(ncn2[C@H]2CO[C@@H](CO)O2)c(=O)[nH]1", "changes": "RT-Q151M V75I", "read by": "cytopathic effect / MTT", "value": ">23"}
{"compound": "Nc1nc(N)c2ncn([C@H]3CO[C@@H](CO)O3)c2n1", "changes": "RT-K65R", "value": "5.21"}
{"compound": "CO[C@H]1O[C@@H](n2ccc(=O)[nH]c2=O)C[C@@H]1N=[N+]=[N-]", "strain": "PD165BC(RT-L92I)", "changes": "RT-L92I", "read by": "RT activity", "value": "0.084"}

Repeating the final 4 entries:

compound,strain,changes,read by,setting,value
Nc1nc2c(ncn2[C@H]2CO[C@@H](CO)O2)c(=O)[nH]1,LAI,RT-D67N K70R T215Y K219Q L74V,p24,,3.7
Nc1nc2c(ncn2[C@H]2CO[C@@H](CO)O2)c(=O)[nH]1,,RT-Q151M V75I,cytopathic effect / MTT,,>23
Nc1nc(N)c2ncn([C@H]3CO[C@@H](CO)O3)c2n1,,RT-K65R,,,5.21
CO[C@H]1O[C@@H](n2ccc(=O)[nH]c2=O)C[C@@H]1N=[N+]=[N-],PD165BC(RT-L92I),RT-L92I,RT activity,,0.084